# Assay results as given in patent publication US6958323B2 (priority 1997, dated 2005).
# Protein sequences, listed by entry. Tags and fused reporters are not part of them. Residues count along the entry.
# UniProt Q05941, 23-502 limits assumed: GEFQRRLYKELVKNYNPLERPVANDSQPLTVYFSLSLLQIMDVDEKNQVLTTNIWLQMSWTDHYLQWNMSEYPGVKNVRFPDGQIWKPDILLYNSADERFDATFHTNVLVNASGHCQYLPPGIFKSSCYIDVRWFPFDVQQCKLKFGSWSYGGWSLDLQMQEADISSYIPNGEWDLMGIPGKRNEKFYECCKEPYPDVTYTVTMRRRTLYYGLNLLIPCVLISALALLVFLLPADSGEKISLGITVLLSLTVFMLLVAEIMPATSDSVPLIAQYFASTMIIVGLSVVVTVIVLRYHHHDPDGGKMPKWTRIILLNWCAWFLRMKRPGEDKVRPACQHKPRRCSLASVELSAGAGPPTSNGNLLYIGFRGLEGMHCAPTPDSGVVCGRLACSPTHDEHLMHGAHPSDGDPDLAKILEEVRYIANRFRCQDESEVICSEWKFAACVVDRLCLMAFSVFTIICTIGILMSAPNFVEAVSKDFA
# Key:
# [1] = test system: neuronal nAChRs (α3β4, α3β2, α7 subtypes); test: nAChR subtypes expressed in Xenopus oocytes, electrophysiological currents; conditions: generally by several orders of magnitude
# α7 nAChR = α7 nAChR (Rattus norvegicus, UniProt Q05941)
smiles,measurement,setting,value
CC(C)C[C@@H]1NC(=O)[C@H](CO)NC(=O)[C@@H]2CSSC[C@@H](C(N)=O)NC(=O)[C@H](Cc3ccc(O)cc3)NC(=O)[C@H](CC(=O)O)NC(=O)[C@@H]3CCCN3C(=O)[C@H](CC(N)=O)NC(=O)[C@H](CO)NC(=O)[C@H](C)NC(=O)[C@H](C)NC(=O)[C@H](CSSC[C@H](NC(=O)CN)C(=O)N2)NC(=O)[C@@H]2CCCN2C(=O)[C@@H]2CCCN2C1=O,nAChR subtype for which the peptide has higher specificity,[1],α3β2-containing subtype
same,pIC50,α7 nAChR,5.77

# pIC50: −log10 of the molar value.
